The text below walks through data of patent US20090291885A1, “Conjugated toxin peptide therapeutic agents” (published 2009).

The target in experiment [1] is human Kv1.1 channel (human) (UniProt Q09470). Kind of experiment: cell-based or functional assay.
Experiment [2] concerns the target human Kv1.3 channel (human) (UniProt P22001). Briefly: cell-based or functional assay.

On to “Fc-L10-OSK1[K7S, E16K, K20D] (Fc fusion)”, for which the hKv1.1: IC50 [pM] in experiment [1] is 10000 pM.
With Fc-L10-OSK1[K7S] (Fc fusion), in experiment [2], the fold change of Kv1.3 potency against Fc-L10-OSK1 is 2 fold and the fold loss of potency in Kv1.3 current block against synthetic OSK1 worked out at 10 fold. The hKv1.1: IC50 [pM] in experiment [1] turned out to be 100000 pM.
